Results of unrelated studies side by side (data: NIAID ChemDB).

Common to all: whole-cell or culture tests; organism: Mycobacterium tuberculosis

MIC50, MIC90 and the like: level of inhibition, or share of isolates inhibited. MIC bound comes from a single tested concentration. Two numbers with a dash give a range or band. Inhibition is in % at the dose shown (toxicity tests: loss of growth or viability). Conditions beyond the fields shown may differ between rows. An empty or dashed field is not shown. ECn is the concentration giving n% inhibition of infection, replication or growth.

compound	endpoint	read by	dose	cells	strain	value
Nc1nnc2nc(CC(=O)c3ccc4ccccc4c3)c(=O)[nH]n12	inhibition	BACTEC	12.5 µg/mL	-	H37Rv	8%
N#CCCCSc1ccnc(C(=N)N)c1	MIC	-	-	-	331/81	1000 µM
O=S(=O)(NCCO)c1ccc(-c2nnn(Cc3ccc(F)cn3)n2)c(F)c1	MIC	resazurin	-	-	H37Rv	<0.1 µM
Nc1nc(Cl)c(Cl)nc1C(=O)O	MIC	BACTEC	-	-	H37Rv	≥12.5 µg/mL
Cc1c(CN2CCN(C)CC2)c(CN2CCN(C)CC2)c(C)n1C1CCCCC1	MIC	-	-	-	103471	>64 µg/mL
O=c1oc2ccccc2c(=O)n1-c1cccc([N+](=O)[O-])c1	MIC	-	-	-	My 331/88	31 µM
CN(C)CCCOc1cc(Nc2cc(C3CC3)[nH]n2)nc(-c2ccccc2)n1	MIC99	-	-	-	H37Rv	5 µM
CCOC(=O)CSc1ccnc(C(N)=S)c1	MIC	-	-	-	331/81	500 µM
O=[N+]([O-])c1ccc(/C=N/NC(=S)N2CCCC2)o1	MIC	-	-	-	-	100 µg/mL
NC(=O)CNS(=O)(=O)c1ccc(-c2nnn(Cc3ccc(F)c(F)c3)n2)cc1	MIC	resazurin	-	-	H37Rv	<0.1 µM
Nc1nc2ccc(NCc3ccc(C(=O)N[C@@H](CCC(=O)O)C(=O)O)cc3)cc2c(=O)[nH]1	MIC bound	BACTEC	-	-	H37Rv	>12.5 µg/mL
NC(=O)CNS(=O)(=O)c1ccc(-c2nnn(Cc3ccc(F)cc3)n2)cc1Cl	MIC	resazurin	-	-	H37Rv	<0.1 µM
O=C(Nc1ccc(C2=NCCCN2)cc1)c1ccc(C(=O)Nc2ccc(C3=NCCCN3)cc2)nc1	MIC	-	-	-	EMB-R	12.5 µg/mL
O=S(=O)(NCCO)c1ccc(-c2nnn(Cc3ccc(Cl)cc3)n2)cc1	MIC	resazurin	-	-	H37Rv	<0.1 µM
NC(=S)CSc1ccnc(C(N)=S)c1	MIC	-	-	-	331/81	62 µM
OC[C@@H](O)COCn1cc(Cn2ncc3c(SCc4ccccc4)ncnc32)nn1	EC50	BACTEC	-	-	H37Rv	>12.5 µg/mL
O=c1oc2ccccc2c(=O)n1-c1ccc(Cl)cc1	MIC	-	-	-	My 331/88	31 µM
N#CCCSc1cc(C#N)ccn1	MIC	-	-	-	331/81	250 µM
CCC(C)N1CCN(c2cc(O)c3c(c2)Oc2c4c(O)c5c(O)c(C)c6c(c5c2N3)C(=O)[C@@](C)(O/C=C/[C@H](OC)[C@@H](C)[C@@H](OC(C)=O)[C@H](C)[C@H](O)[C@H](C)[C@@H](O)[C@@H](C)/C=C/C=C(/C)C(=O)N4)O6)CC1	MIC	-	-	-	H37Rv	0.017 µg/mL
COc1cc(-c2nnn(C(C)c3ccc(F)cc3)n2)ccc1S(=O)(=O)NCC(N)=O	MIC	resazurin	-	-	H37Rv	10–25 µM
Cc1cc(NNc2ccc([N+](=O)[O-])cn2)c2ccccc2c1N=Nc1ccc([N+](=O)[O-])cn1	MIC bound	BACTEC	-	-	H37Rv	>12.5 µg/mL
Nc1ccc(C(=O)O)c(O)c1	MIC	-	-	-	Clinical isolate 2	>100 µg/mL
NC(=S)CSc1cc(C(N)=S)ccn1	MIC	-	-	-	331/81	125 µM
CO[C@H]1/C=C/O[C@@]2(C)Oc3c(C)c(O)c4c(O)c(c5c(c4c3C2=O)Nc2c(O)cc(N3CCN4CCCC4C3)cc2O5)NC(=O)/C(C)=C\C=C\[C@H](C)[C@H](O)[C@@H](C)[C@@H](O)[C@@H](C)[C@H](OC(C)=O)[C@@H]1C	MIC	-	-	-	H37Rv	0.15 µg/mL
Cc1cc(CN2CCOCC2)c(C)[nH]1	MIC	-	-	-	103471	>64 µg/mL
CC(C)[C@@H]1CCN(c2cc(Nc3ccccn3)nc(-c3ccccc3)n2)C1	MIC90	resazurin	-	-	H37Rv	32 µM
COc1ncnc2c1cnn2Cc1cn(COC[C@@H](O)CO)nn1	inhibition	BACTEC	12.5 µg/mL	-	H37Rv	0%
NC(=O)CNS(=O)(=O)c1ccc(-c2nnn(Cc3ccc(F)cc3)n2)cc1	MIC	resazurin	-	-	H37Rv	<0.1 µM
Cc1ccc(C)n1-c1nc(-c2ccc([N+](=O)[O-])cc2)cs1	MIC	resazurin	-	-	H37Rv	0.4 µg/mL
N#CCCSc1ccnc(C#N)c1	MIC	-	-	-	331/81	250 µM
COC(=O)C(C(=O)C(=O)NC1=C(Cl)C(=O)c2ccccc2C1=O)c1csc(-n2nc(-c3ccccc3)cc2-c2ccccc2)n1	MIC bound	BACTEC	-	-	H37Rv	>12.5 µg/mL
CN[C@@H]1[C@H](O[C@H]2[C@H](O[C@H]3[C@H](O)[C@@H](O)[C@H](N=C(N)N)[C@@H](O)[C@@H]3N=C(N)N)O[C@@H](C)[C@]2(O)C=O)O[C@@H](CO)[C@H](O)[C@H]1O	MIC	-	-	-	Clinical isolate 7	>100 µg/mL
O=C(Nc1cccc(Cl)c1)c1ccccc1O	MIC	-	-	-	My 331/88	16 µM
Cc1c(CN2CCSCC2)cc(-c2ccc(F)cc2)n1-c1ccc(Cl)cc1	MIC	-	-	-	103471	2 µg/mL
C=CCCN1CCN(c2cc(O)c3c(c2)Oc2c4c(O)c5c(O)c(C)c6c(c5c2N3)C(=O)[C@@](C)(O/C=C/[C@H](OC)[C@@H](C)[C@@H](OC(C)=O)[C@H](C)[C@H](O)[C@H](C)[C@@H](O)[C@@H](C)/C=C/C=C(/C)C(=O)N4)O6)CC1	MIC	-	-	-	H37Rv	0.017 µg/mL
OC[C@@H](O)COCn1nncc1Cn1ncc2c(Sc3ccccc3)ncnc21	EC50	BACTEC	-	-	H37Rv	>12.5 µg/mL
CN1CCCCC1CCN1c2ccccc2Sc2ccc(S(C)=O)cc21	MIC	-	-	-	-	6–32 µg/mL
CC1=CC(O/C=C2\C(=O)OC3C=CCC23)OC1=O	inhibition	BACTEC	12.5 µg/mL	-	H37Rv	4%
Cc1ccc2c(c1)nc1cc(Nc3ccc(Cl)cc3)c(=NC3CCCCCCC3)cc-1n2-c1ccc(Cl)cc1	MIC	-	-	-	H37Rv (SM-resistant)	0.1 µg/mL
CNCCCN1c2ccccc2CCc2ccccc21	MIC	-	-	-	-	>25 µg/mL
COc1ccc(Cn2nnc(-c3ccc(S(=O)(=O)NCC(N)=O)cc3)n2)cc1	MIC	resazurin	-	-	H37Rv	<0.1 µM
O=[N+]([O-])c1cn2c(n1)OC[C@@H](OCc1ccc(OC(F)(F)F)cc1)C2	MIC	-	-	-	H37Rv-5A1 (PA-824-resistant)	>100 µM
CC(C)(C)c1ccc(CNc2ccc(N3CCOCC3)cc2)cc1	MIC	-	-	-	103471	4 µg/mL
C=C1C(=O)O[C@@H]2/C=C(/C)[C@@H](OC(C)=O)C[C@H](O)/C(C)=C\[C@@H](OC(=O)/C(C)=C\C)[C@H]12	MIC	BACTEC	-	-	H37Rv	≥12.8 µg/mL
O=[N+]([O-])c1ccc(/C=N/NC(=S)N2CCCCC2)o1	MIC	-	-	-	-	100 µg/mL
O=C(N/N=C/c1ccco1)c1cccnc1	MIC bound	BACTEC	-	-	H37Rv	>12.5 µg/mL
CC1=CC(=O)N(NC(=O)c2ccc(-n3c(C)ccc3C)cc2)C1=O	MIC	resazurin	-	-	H37Rv	3.125 µg/mL
CC(C)(CNC(=O)C1CCC1)CNc1nc(Nc2cccc(CN3CCCC3)c2)ncc1Br	MIC90	resazurin	-	-	H37Rv	64 µM
CC(C)(C)c1ccc(CNc2ccccc2C2=NCCN2)cc1	MIC	-	-	-	103471	1 µg/mL
CCn1cc(C(=O)O)c(=O)c2cc(F)c(N3CCN(c4nnc(SCC(=O)c5ccc(Br)cc5)s4)C(C)C3)c(OC)c21	MIC90	broth dilution	-	-	H37Rv	1.5 µg/mL
CO[C@H]1/C=C/O[C@@]2(C)Oc3c(C)c(O)c4c(O)c(c5c(c4c3C2=O)Nc2c(O)cc(N3CCN(C(C)(C)C)CC3)cc2O5)NC(=O)/C(C)=C\C=C\[C@H](C)[C@H](O)[C@@H](C)[C@@H](O)[C@@H](C)[C@H](OC(C)=O)[C@@H]1C	MIC	-	-	-	H37Rv	0.008 µg/mL
COc1cc(-c2nc(SC)nc3c2ccc2ccccc23)cc(OC)c1OC	inhibition	BACTEC	12.5 µg/mL	-	H37Rv	0%
CN(C)[C@@H]1CCN(c2cc(Nc3cc(C4CC4)[nH]n3)nc(-c3ccccc3)n2)C1	MIC90	resazurin	-	-	H37Rv	32 µM
CCCCCCN(CCCCCC)/N=C/c1c2c(O)c3c(O)c(C)c4c(c3c1O)C(=O)[C@@](C)(O/C=C/[C@H](OC)[C@@H](C)[C@@H](OC(C)=O)[C@H](C)[C@H](O)[C@H](C)[C@@H](O)[C@@H](C)/C=C/C=C(/C)C(=O)N2)O4	MIC	BACTEC	-	VERO	H37Rv	1.6 µg/mL
CNc1ncnc2c1cnn2COC[C@@H](O)CO	EC50	BACTEC	-	-	H37Rv	>12.5 µg/mL
COc1c2c(cc3c1C1Oc4c(ccc(O)c4CC=C(C)C)C1CO3)OC(C)(C)C=C2	MIC	-	-	-	PZA-R	12.5 µg/mL
CC(=O)Nc1ccc(/C=N/NC(N)=S)cc1	MIC	-	-	-	-	10 µg/mL
O=C(Nc1ccc(Cl)c(Cl)c1)c1ccccc1O	MIC	-	-	-	My 331/88	8 µM
CSC(=S)N/N=C(/C)c1cccs1	MIC	-	-	-	KM-R	0.8 µg/mL
CO[C@H]1/C=C/O[C@@]2(C)Oc3c(C)c(O)c4c(O)c(c5c(c4c3C2=O)Nc2c(O)cc(N3CCN(CC4CC4)CC3)cc2O5)NC(=O)/C(C)=C\C=C\[C@H](C)[C@H](O)[C@@H](C)[C@@H](O)[C@@H](C)[C@H](OC(C)=O)[C@@H]1C	MIC	-	-	-	H37Rv	0.017 µg/mL
CN(C)CCCN1c2ccccc2Sc2ccc(Cl)cc21	MIC	-	-	-	5 isolates (polydrug resistance)	4 µg/mL
CN(C)[C@@H]1CCN(c2cc(Nc3cc(C(F)(F)F)c(Br)cn3)nc(-c3ccccc3)n2)C1	MIC99	-	-	-	H37Rv	>20 µM
COC1(CO)C(=O)N(C)CC(=O)N1C	MIC bound	BACTEC	-	-	H37Rv	≤12.5 µg/mL
N#CCSc1ccnc(C#N)c1	MIC	-	-	-	331/81	500 µM
CC(C)(C)C1=CC(=O)C(Cl)(C(C)(C)C)C(Cl)C1=O	inhibition	BACTEC	128 µg/mL	-	H37Rv	100%
C=C(C)/C=C/[C@]12C[C@H](C)[C@H]3CC[C@](C)(NC)[C@@H](CC[C@H]1C)[C@@H]32	inhibition	-	128 µg/mL	-	H37Rv	99%
N#CCSc1cc(C#N)ccn1	MIC	-	-	-	331/81	31 µM
Cc1ccc(C)n1-c1ccc(C(=O)NN2C(=O)c3ccccc3C2=O)cc1	MIC	resazurin	-	-	H37Rv	0.4 µg/mL
CCn1cc(C(=O)O)c(=O)c2cc(F)c(N3CCN(c4nnc(SCC(=O)c5ccc(O)cc5)s4)C(C)C3)c(OC)c21	MIC90	broth dilution	-	-	H37Rv	15 µg/mL
Cc1cc(CN2CCN(C)CC2)c(C)n1C1CCCCC1	MIC	-	-	-	103471	8 µg/mL
COC(=O)[C@@H]1[C@H](O)[C@H](C)C(O)[C@H](C)/C=C\C=C(/C)C(=O)Nc2c(C)c(OC(C)=O)c3c(c2O)C(=O)C(C)=C2OCOC(=C23)/C(C)=C/[C@@](C)(O)[C@H](O)[C@@H](C)[C@H]1OC(C)=O	MIC	-	-	-	INH-r	6.3 µg/mL
Cc1ccc(C)n1-c1ccc(C(=O)NN2C(=O)c3cccc([N+](=O)[O-])c3C2=O)cc1	MIC	resazurin	-	-	H37Rv	6.25 µg/mL
CCCc1[nH]n(-c2cccc([N+](=O)[O-])c2)c(=O)c1N=Nc1ccc(Cl)cc1	inhibition	BACTEC	12.8 µg/mL	-	H37Rv	25%
Cc1[nH]c(-c2ccc(Cl)cc2)c(CN2CCN(C)CC2)c1CN1CCN(C)CC1	MIC	-	-	-	103471	>64 µg/mL
CN(C(=O)C1CC1)C1C2CN3CCC(O2)C13	inhibition	BACTEC	12.5 µg/mL	-	H37Rv	-5%
CC1=CC(=O)N(NC(=O)c2ccc(-n3cccc3)cc2)C1=O	MIC	resazurin	-	-	H37Rv	0.8 µg/mL
Nc1ncnc2c1ncn2C1OC(C(=O)NCC(=O)O)C(O)C1O	inhibition	BACTEC	12.5 µg/mL	-	H37Rv	13%
CCn1cc(C(=O)O)c(=O)c2cc(F)c(N3CCN(c4nnc(SCC(=O)c5ccc(Cl)cc5)s4)C(C)C3)c(OC)c21	MIC90	broth dilution	-	-	H37Rv	1 µg/mL
O=S(=O)(O)C1=CC(=N/Cl)/C=CC/1=N\Cl	MIC bound	BACTEC	-	-	H37Rv	>12.5 µg/mL
CCCCCCn1c(C)c(CN2CCN(C)CC2)c(CN2CCN(C)CC2)c1-c1ccc(Cl)cc1	MIC	-	-	-	103471	8 µg/mL

Repeating the first 6 entries:

compound | endpoint | read by | dose | cells | strain | value
Nc1nnc2nc(CC(=O)c3ccc4ccccc4c3)c(=O)[nH]n12 | inhibition | BACTEC | 12.5 µg/mL | - | H37Rv | 8%
N#CCCCSc1ccnc(C(=N)N)c1 | MIC | - | - | - | 331/81 | 1000 µM
O=S(=O)(NCCO)c1ccc(-c2nnn(Cc3ccc(F)cn3)n2)c(F)c1 | MIC | resazurin | - | - | H37Rv | <0.1 µM
Nc1nc(Cl)c(Cl)nc1C(=O)O | MIC | BACTEC | - | - | H37Rv | ≥12.5 µg/mL
Cc1c(CN2CCN(C)CC2)c(CN2CCN(C)CC2)c(C)n1C1CCCCC1 | MIC | - | - | - | 103471 | >64 µg/mL
O=c1oc2ccccc2c(=O)n1-c1cccc([N+](=O)[O-])c1 | MIC | - | - | - | My 331/88 | 31 µM